Measured values: publication PMC6208348 (Nature Communications, 2018)

B1: L. pneumophila RavO SH2 domain (residues 225-344, crystallised with the Shc1 peptide) (domain or fragment)
chain: ESEKIYKVMEEIFVDRHYKENIRTGEEVKQYFSKSKAEFILRWSSANESDTENKYVFIAASFQASDGIHSIRYGINKNGELFSINTASNKVTPIDILPLGVMATLTQHITQNKELIEKAL

How the values were obtained:
[1] = target: T1, GST-fused L. pneumophila RavO SH2 domain (Gly212-Asp406) (Legionella pneumophila, UniProt Q5ZWF6 212-406); assay: peptide or protein array
T1 construct: also called GST-RavO SH2; GST-tagged RavO SH2 domain; source: E. coli BL21(DE3), purified (Ni-NTA, dialysis)

[2] = target: the molecule itself; assay: crystal structure

Binder | binding result [1] | binding result [2]
DPSYVNVQNL [Shc1 pTyr317 peptide (DPSpYVNVQNL) on the permutation array] | binds | 
B1 |  | binds
